Assay results reported in the supplement of paper PMC9931576.
Human monoclonal antibodies against the spike receptor-binding domain (heavy:light variable regions). IC50 against pseudoviruses bearing the spike of naturally observed variants; lower = stronger; >10 µg/ml means not reached at the top dose. No active / inactive call. The stated detection limit is 0.0005 µg/ml; values near or below 0.001 µg/ml lie at the floor of the assay.

Key:
Assay in all cases: pseudovirus neutralization IC50; higher = weaker neutralization
[1] = target: SARS-CoV-2 Omicron BA.1 spike pseudovirus
Experimental: (§1)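 Single-round VSV luciferase pseudovirus mixed with antibody dilutions for 1 h and put on Huh-7 cells for about a day; IC50 from the dose curve.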

[2] = target: SARS-CoV-2 Omicron BA.2 spike pseudovirus
Experimental: as §1

[3] = target: SARS-CoV-2 Omicron BA.2.75 spike pseudovirus
Experimental: as §1

[4] = target: SARS-CoV-2 Omicron BA.5 spike pseudovirus
Experimental: as §1

[5] = target: SARS-CoV-2 Omicron BQ.1.1 spike pseudovirus
Experimental: as §1

[6] = target: SARS-CoV-2 Omicron XBB spike pseudovirus
Experimental: as §1

[7] = target: SARS-CoV-2 early D614G spike pseudovirus
Experimental: as §1

Binder | pseudovirus neutralization IC50 [1] [µg/mL] | pseudovirus neutralization IC50 [2] [µg/mL] | pseudovirus neutralization IC50 [3] [µg/mL] | pseudovirus neutralization IC50 [4] [µg/mL] | pseudovirus neutralization IC50 [5] [µg/mL] | pseudovirus neutralization IC50 [6] [µg/mL] | pseudovirus neutralization IC50 [7] [µg/mL]
BD55-5396 (protein) chain 1: EVQLVESGGGLIKPGGSLRLSCAASGFTFNSYTMSWVRQAPGKGLEWVSSISGSSTFIFYADSLKGRFTISRDNARNSLYLQMNTLRAEDTAVYYCARNFDILTPYADAEYFQYWGPGTLVTVSS chain 2: EIVLTQSPATLSLSPGERATLSCRASQSVSSNVAWYQQKPGQAPRLLIYDASNRATGIPARFSGSGSGTDFTLTINSLEPEDFAVYYCQQRTNWPPYTFGQGTKLEIK | > 10 | > 10 | > 10 | > 10 | > 10 | > 10 | 1.92
BD55-5411 (protein) chain 1: QVQLVESGGGVVQPGRSLRLSCVASGFTFSTYGIHWVRQAPGKGLEWVAVISYDARDEHHADPVKGRFTISRDNSKNTLYLQMNGLRVEDTAVYYCARDPVSMIRGVTLDYHYGMDVWGQGTTVTVSS chain 2: DIQMTQSPSAVSASIGDRVTITCRASQDISRWLVWYQQKPGTAPKLLIKIASSLQSGVPSRFSGSGSGTDFTLTISSLQPEDFATYYCQQTNSFPLTFGGGTKVEIK | > 10 | > 10 | > 10 | > 10 | > 10 | > 10 | > 10
BD55-5416 (protein) chain 1: QIQLQQSGPGLVKPSQTLSLTCALSGDSVSSDSSAWNWIRQSPSRGLEWLGRTYYRSKWYNDYAVSVKSRITINPDTSKNQFSLQLKSVTPEDTAVYYCVREWLDLGDNWFDPWGQGTLVTVSS chain 2: QSALTQPASVSGSPGQSITFSCTGTSSDVGDYNYVSWYQQHPGKAPKLIIYDVNTRPAGVSNRFSGSKSGNTASLTISGLQAEDEADYYCSSYTSSRTYVFGAGTKVTVL | > 10 | > 10 | > 10 | > 10 | > 10 | > 10 | 0.119
BD55-5389 (protein) chain 1: EAQLEESGGGLVKPGGSLRLSCVASGFTFNSYSMNWLRQAPGKGLEWVASMSRDSALKFYADSAQGRFTISRDNAKNSLFLHMSSLRAEDTAVYYCARESALTMTVDLDLWGQGTLVTVS chain 2: DVQMTQSPPFLSASVGDRVTITCRASQNINTYLNWYQHKPGKAPKLLIYGASTLQRGVPSRFSGSGSGTDFSLTITGLQPEDFATYFCQQTYITPRVTFGQGTKLEIK | > 10 | > 10 | > 10 | > 10 | > 10 | > 10 | > 10
BD55-5402 (protein) chain 1: EVLLVESGGGLVQPGGSLRLSCAASGFIFNTYAMHWVRQSPGKGLEYVSSITNNGDGTFYADSVKGRFTISRDNSKNTLYLQMGSLRAEDMAVYYCARESRVVVDTVLDSWGQGTLVTVSS chain 2: DIQMTQSPSSLSASVGDRVTISCRASQSIARYLNWYQLKPGKAPKLLIYGASNLQGGVPSRFSGSGSGTEFTLTISGLQPEDFATYYCQQSYISPQYTFGQGTKLDI | > 10 | > 10 | > 10 | > 10 | > 10 | > 10 | > 10
BD55-5431 (protein) chain 1: QMQLVESGGGVVRPGRSLRLSCAASAFPFSTYAMHWVRQAPGKGLEWVAVISYDGSDIYYADSVKGRFTISRDNSKNTLYLQMSDLGAQDTAVYYCARAGVLRNFDWLLSSGFAFWGQGTLVTVSS chain 2: DIQMTQSPSSLSASVGDRVTITCQASQDIRNYLNWYQQKPGKAPKLLIYDASNLEPGVPSRFSGRGSGTDFTLTISSLQPEDLATYYCQQYFNLPSFGQGTKLEIK | > 10 | > 10 | > 10 | > 10 | > 10 | > 10 | 0.197
BD55-5432 (protein) chain 1: EVQLAESGGGVGQPGRSLRLSCEASGFRFDEYAMHWVRQAPGKGLEWVSSISWNSGSIGYADSVKGRFIISRDNAKNSLYLEMNSLRSEDTALYFCVRDEGHGSGGSLGCFDYWGRGALVTVSS chain 2: EIVLTQSPGTLSLSPGQRATLSCRASQGVGRYNLAWYQHKPGQAPRLLIHETSTRATGIPDRFSGSGSGTDFTLTITRLEPEDFAVYYCQQYGTSARTFGQGTKLEIK | > 10 | > 10 | > 10 | > 10 | > 10 | > 10 | 0.0262
BD55-1049 (protein) chain 1: QVQLVQSGAEVQKPGASVKVSCKASGYTFSAYYMYWVRQAPGQGLEWMGWINCNSGETKYAQNFQGSVNMTRDSSISTAYMELSRLRSDDTAVYYCARVNRREWGPQYGMDIWGQGTTVTVSS chain 2: DIVMTQTPLFLSVTPGQPASISCKSSQSLLHGGGKTYLSWYLQKPGQSPRLLIYEVSNRFSVLPERFSGSGSGTDFTLKISRVQAEDVGVYYCMQGLSLPWTFGQGTKVEIK | > 10 | > 10 | > 10 | > 10 | > 10 | > 10 | 0.0477
BD55-5400 (protein) chain 1: QVQLVQSGAEVKKPGASVKVSCKASGYTFTTHYMHWVRQAPGQGLEWMGIINPNTGTTTYAQKFQGRLTMTRDTSTSTVYMELSRLTSEDTAMYFCARDRVIGVVSIDWFDPWGQGTLVTVSS chain 2: DIQLTQSPSSLSASIGDRVTLTCRASQYIRNYLNWYQQKPGKAPQLLISAASSLQSGVPSRFSGSGSGTDFTLTISSLQPEDFATYYCQQSYVTPPYTFGQGTKLEIR | > 10 | > 10 | > 10 | > 10 | > 10 | > 10 | > 10
BD55-5425 (protein) chain 1: EVQLVESGGGLVQPGESLRLSCAASGFSFRTYPMHWVRQAPGKGLEYVSSISSNGGAFYADSVKGRFTISRDNSKNTLYLQMGSLRAEDMAVYYCAREGGDYSVVLDYWGQGTLVTISS chain 2: DIQMTQSPSSLSASVGDRVTITCRAGQSISRYLNWYQQKPGKAPKLLIYTASSLQSGVPSRFSGSGSGTDFTLTISGLQPEDFATYYCQQSYVTPMYTFGQGTKLEIK | > 10 | > 10 | > 10 | > 10 | > 10 | > 10 | > 10
BD55-5397 (protein) chain 1: QVQLVQSGAEVKKPGTSVKVSCKPSGGTFNGYAINWVRQAPGQGLEWMGGIIPVFDTTNYAQKFQGRVRITADQSTSTAYVELSGLRSEDTAVYYCARSKYHPGYDMLTGRPDVSLPFDYWGQGTLVTVSS chain 2: DIQMTQSPSSLSASVGDRVTITCQASQDISSHLSWYQQKPGKGPKLLIYHASNLETGVPSRFSGSGSGTDFIFTINSLQPEDIAIYYCQQYDNLPYTFGQGTKLE | 2.49 | 1.17 | 2.72 | 3.22 | 3.08 | 2.72 | 0.442
BD55-5387 (protein) chain 1: EVQLVESGGGLVQPGRSLRLSCGASGFMFDDYALHWVRQAPGRGLEWVSSISWNSGDIAYADSVKGRFTISRDNAKHSLYLQMNSLRGDDTAFYYCARSRLAEMVGVHFDYWGQGALVTVSS chain 2: EIVMTQSPATLSVSPGDRATLSCRASQSVSSNLAWYQQKPGQAPRLLIYGASTRATGIPARFSGSGSGTEFTLTISSLQSEDFGVYYCQQYNTWPPMYTFGQGTKLEIK | > 10 | > 10 | > 10 | > 10 | > 10 | > 10 | 0.73
